Data on one substance can be found in patent publication US20090317419A1, “Tetramers” (Duke University, priority 2008, published 2009).

This test concerns the target peptide …. As to the kind of experiment: peptide ELISA, mAb at 1 µg/mL.

F39F (antibody) showed an OD @ 405 nm of 0.956 OD.
